# Measurements as given in PubChem BioAssay AID2606 (The Scripps Research Institute Molecular Screening Center, 2010).
# Chains of the proteins cited; added tags and fusions are not shown. Lines headed by an entry give the natural chain unless they say otherwise; changes in a name come on top.
# UniProt P9WHR9: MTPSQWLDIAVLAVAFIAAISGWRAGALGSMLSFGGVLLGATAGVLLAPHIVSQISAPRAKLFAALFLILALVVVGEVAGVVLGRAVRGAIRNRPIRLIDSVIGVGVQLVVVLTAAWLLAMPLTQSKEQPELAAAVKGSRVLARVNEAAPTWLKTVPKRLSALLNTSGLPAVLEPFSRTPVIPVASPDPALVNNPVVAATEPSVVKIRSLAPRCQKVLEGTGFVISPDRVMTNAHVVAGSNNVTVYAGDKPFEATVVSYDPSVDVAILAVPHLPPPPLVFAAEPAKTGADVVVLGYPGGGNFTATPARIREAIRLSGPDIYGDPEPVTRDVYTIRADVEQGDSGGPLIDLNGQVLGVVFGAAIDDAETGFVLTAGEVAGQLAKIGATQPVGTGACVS
# Only a part is listed here, and it is no random draw. Activity calls are given as the source filed them. Rule as the data show it: active = inhibition above about 38%; inactive = the rest.
# Molecular target: Serine protease Rv3671c (Mycobacterium tuberculosis (strain ATCC 25618 / H37Rv)) (UniProt P9WHR9)
# Experiment: inhibition of M. tuberculosis membrane protease Rv3671c – biochemical, fluorescence polarization, M. tuberculosis H37Rv, primary screen (AID 2606);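 also: extracellular domain of Rv3671c used as enzyme; 0% = enzyme with DMSO and 100% = no enzyme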
# Settings: at 5.96 µM; active compounds read high
row,SMILES,inhibition
1,CC(=O)NC(SC(=S)N(C)C)C(Cl)(Cl)Cl (stereo unspecified),inactive: -6.31%
2,O=[As](O)(c1ccccc1)c1ccc(O)cc1,inactive: -0.14%
3,C(Cc1nn[nH]n1)Cc1nn[nH]n1,inactive: 7.08%
4,Nc1ccc([As](=O)(O)c2ccc([N+](=O)[O-])cc2)cc1,inactive: -9.67%
5,O=C(OC1CN2CCC1CC2)c1cccc(Cl)c1 (stereo unspecified),inactive: 4.08%
6,O=P(Nc1ccccn1)(c1ccc(Br)cc1)c1ccc(Br)cc1,inactive: 4.1%
7,CN(C)C1(CNC(=O)c2ccc(Cl)c(S(N)(=O)=O)c2)CCCCC1,inactive: 5.08%
8,C[C@H]1OP(=O)(Oc2ccccc2)[C@H](O)[C@H](O)[C@H]1N=[N+]=[N-] (stereo partly specified),inactive: 8.59%
9,O=P(Nc1nc2ccccc2s1)(c1ccccc1)c1ccccc1,inactive: 0.61%
10,CC(C)(C)C(=O)NC(Sc1ccncn1)C(Cl)(Cl)Cl (stereo unspecified),inactive: -2.98%
11,O=[N+]([O-])c1ncn(CCn2ncnc2[N+](=O)[O-])n1,inactive: 4.72%
12,O=[N+]([O-])c1cccc(NC2=NCC(CBr)S2)c1 (stereo unspecified),inactive: 0.1%
13,O=C(Nc1cc([As](=O)(O)O)ccc1O)c1ccccc1,inactive: -2.45%
14,C[N+]1=C2C=CC=CC=C2SC12C([N+](=O)[O-])=CC([N+](=O)[O-])=C[C-]2[N+](=O)[O-] (stereo unspecified),inactive: 18.3%
15,Nc1ccc([As](=O)(O)c2ccc(N)cc2)cc1,inactive: -1.06%
16,CCN(/C(=N/P(=O)(N1CCOCC1)N1CCOCC1)N1CCOCC1)c1ccc(OC)cc1,inactive: 5.32%
17,CN(C)C(=O)OCCc1n(C)cc[n+]1C,inactive: -3.72%
18,CC(C)=N/N=C(\N)N[N+](=O)[O-],inactive: -3.74%
19,CC1CCN(C(=O)Oc2c(Cl)cc(Cl)c3cccnc23)CC1,inactive: -6.12%
20,COc1ccc(C2=NCC(CBr)S2)cc1 (stereo unspecified),inactive: 1.69%
21,O=[N+]([O-])c1cccc2n[nH]nc12,inactive: -2.46%
22,CC(=O)N1C2C3N(C(C)=O)C1C1N(C(C)=O)C(C(N1C(C)=O)N3C(C)=O)N2C(C)=O,inactive: 0.82%
23,CCc1nc2c(n1)c1c(non1O)c1c2no[n+]1[O-],inactive: 7.71%

row,SMILES,inhibition
1,O=[N+]([O-])c1cc([N+](=O)[O-])c(CCNc2ccccc2)c([N+](=O)[O-])c1,active: 49.6%
2,Cc1ccc(NP(=O)(Oc2ccccc2)Oc2ccccc2)nc1,inactive: -6.93%
3,Nc1cc(N)c2nonc2c1[N+](=O)[O-],inactive: -7.17%
4,CC(C)CC(=O)NC(Sc1ccc(Cl)cc1)C(Cl)(Cl)Cl (stereo unspecified),inactive: 0.62%
5,O=C(NC(Sc1ccncn1)C(Cl)(Cl)Cl)c1ccccc1 (stereo unspecified),inactive: -3.64%
6,Cc1c2non([O-])c-2c(C)[n+](=O)[n+]1[O-],inactive: -1.17%
7,Oc1ccccc1CNc1ccccn1,inactive: 6.2%
8,NC(=O)c1cc([N+](=O)[O-])cc([N+](=O)[O-])c1N,inactive: 3.97%
9,Cc1ccc(N/C(=N/P(=O)(N2CCOCC2)N2CCOCC2)N2CCOCC2)cc1,inactive: 1.4%
10,CN(C(=O)Cc1ccc(Cl)c(Cl)c1)[C@H]1CCCC[C@H]1N1CCCC1,inactive: -0.49%
11,Cc1ccc(OP(=O)(Nc2nccs2)Oc2ccc(C)cc2)cc1,inactive: -1.85%
12,COc1ccccc1OP(=O)(Nc1ccc(C)cn1)Oc1ccccc1OC,inactive: -4.63%
13,CN1CCCC(OC(=O)C(c2ccccc2)c2ccccc2)C1 (stereo unspecified),inactive: -3.57%
14,Clc1ccc(Cl)c(NC2=NCC(CBr)S2)c1 (stereo unspecified),inactive: -3.05%
15,O=[N+]([O-])c1cc([N+](=O)[O-])c(CCN2CCOCC2)c([N+](=O)[O-])c1,inactive: 28.8%
16,CCN(N=Nc1nonc1N)c1nonc1N,inactive: -6.7%
17,CC(=O)Nc1ccc([As](=O)(O)O)cc1,inactive: -4.62%
18,O=C(O)c1ccccc1[As](=O)(O)O,inactive: -9.87%
19,O=P(Nc1nc2ccc(Cl)cc2s1)(c1ccccc1)c1ccccc1,inactive: 1.61%
20,Cc1ccc(NP(=O)(Oc2ccccc2F)Oc2ccccc2F)nc1,inactive: -5.25%
21,CN(C(=O)Cc1ccc(Cl)c(Cl)c1)[C@H]1CCCC[C@@H]1N1CCCC1,inactive: -2.77%
22,Cc1cc(SC(NC(=O)c2ccc(F)cc2)C(Cl)(Cl)Cl)ncn1 (stereo unspecified),inactive: 1.03%
23,CCOP(=O)(Nc1ccccc1)OCC,inactive: 16.5%
